Results deposited as PubChem BioAssay AID1224833 (University of Georgia, 2016)
The whole screen tested about 12,000 reagents; shown is a part drawn at random. About 5,600 of all reagents (46%) were called active. 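Active calls cover z-scores past 1 in both directions, so they include lowered as well as raised rotavirus replication.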 Entries without a mark were called inactive. Reagent sequences are not shown.

Aim: 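Human genes whose knock-down alters rotavirus replication in monkey cells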 (primary screen)
Cells: monkey MA104 kidney cells
Reagent: siRNA pool against human genes, 50 nM
Duration: 48 h knock-down before infection; read 24 h after infection
Conditions: infection with rotavirus strain RV3 two days after transfection; infectious dose for this stage not given
Detection: 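Rotavirus antigen per well by fluorescent immunoassay, normalised to non-targeting control wells on each plate and given as a standard z-score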
Direction: z-score vs non-targeting control: higher = more rotavirus replication than with non-targeting control
Hit rule: In these data the active calls have z-score vs non-targeting control at about -1 or lower, or at about 1 or higher
Meaning of the calls: active = z-score beyond 1 either way; inactive = z-score within 1 of zero

| gene symbol | z-score vs non-targeting control |
| --- | --- |
| TMEM25 (transmembrane protein 25) | -0.812 |
| NTN1 (netrin 1) | -0.212 |
| CYP2C19 (cytochrome P450 family 2 subfamily C member 19) | 0.798 |
| INO80 (INO80 complex ATPase subunit) | 0.921 |
| RMI1 (RecQ mediated genome instability 1) | -0.482 |
| ZC2HC1C (zinc finger C2HC-type containing 1C) | -0.237 |
| TSPAN16 (tetraspanin 16) | 1.01 (active) |
| HOXD1 (homeobox D1) | -0.848 |
| SLC45A1 | 0.547 |
| ARMCX3 (armadillo repeat containing X-linked 3) | -0.958 |
| KLHL11 (kelch like family member 11) | 1.15 (active) |
| GGT1 (gamma-glutamyltransferase 1) | 0.504 |
| MRPS6 (mitochondrial ribosomal protein S6) | -2.23 (active) |
| SYCE1 (synaptonemal complex central element protein 1) | -1.12 (active) |
| SUPT4H1 (SPT4 homolog, DSIF elongation factor subunit) | -0.809 |
| TNFSF12 (TNF superfamily member 12) | 0.636 |
| ZWINT (ZW10 interacting kinetochore protein) | -0.952 |
| CCAR1 (cell division cycle and apoptosis regulator 1) | -1.38 (active) |
| RALGDS (ral guanine nucleotide dissociation stimulator) | -0.284 |
| URM1 (ubiquitin related modifier 1) | -2.22 (active) |
| ITIH6 (inter-alpha-trypsin inhibitor heavy chain family member 6) | 0.607 |
| ZNF396 (zinc finger protein 396) | 0.0963 |
| UGT1A6 (UDP glucuronosyltransferase family 1 member A6) | 1.52 (active) |
| LINC02910 (long intergenic non-protein coding RNA 2910) | 0.991 |
| ERH (ERH mRNA splicing and mitosis factor) | -0.386 |
| CASKIN1 (CASK interacting protein 1) | 1.81 (active) |
| ZNF20 (zinc finger protein 20) | 0.514 |
| GBP6 (guanylate binding protein family member 6) | -1.15 (active) |
| OR2B3 (olfactory receptor family 2 subfamily B member 3) | -1.68 (active) |
| LCNL1 (lipocalin like 1) | -1.17 (active) |
| RSRC2 (arginine and serine rich coiled-coil 2) | 0.642 |
| HSPH1 (heat shock protein family H (Hsp110) member 1) | 0.817 |
| LTB (lymphotoxin beta) | -1.06 (active) |
| CYBA (cytochrome b-245 alpha chain) | -1.98 (active) |
| RPL10 (ribosomal protein L10) | 0.0027 |
| CD34 (CD34 molecule) | -1.14 (active) |
| STARD10 (StAR related lipid transfer domain containing 10) | -0.937 |
| SLC35D3 | -0.29 |
| REXO5 (RNA exonuclease 5) | 0.669 |
| STX2 (syntaxin 2) | 1.02 (active) |
| TTC13 (tetratricopeptide repeat domain 13) | 1.07 (active) |
| KRTAP5-2 (keratin associated protein 5-2) | 0.0298 |
| FSIP1 (fibrous sheath interacting protein 1) | -0.806 |
| CA12 (carbonic anhydrase 12) | -0.99 |
| DPPA3 (developmental pluripotency associated 3) | -0.841 |
| ERMAP | -0.352 |
| CREB3L4 (cAMP responsive element binding protein 3 like 4) | 1.38 (active) |
| FN1 (fibronectin 1) | -1.62 (active) |
| BAGE5 (BAGE family member 5) | 1.06 (active) |
| GHITM (growth hormone inducible transmembrane protein) | 1.08 (active) |
| FARS2 (phenylalanyl-tRNA synthetase 2, mitochondrial) | -0.615 |
| SIX6 (SIX homeobox 6) | -0.648 |
| TIPARP (TCDD inducible poly(ADP-ribose) polymerase) | -1.21 (active) |
| SLC61A1 | 1.61 (active) |
| PLAGL2 (PLAG1 like zinc finger 2) | 1.09 (active) |
| IKZF2 (IKAROS family zinc finger 2) | 1.78 (active) |
| TCF15 (transcription factor 15) | -1.51 (active) |
| HSD11B2 (hydroxysteroid 11-beta dehydrogenase 2) | -0.837 |
| ZNF234 (zinc finger protein 234) | 0.0925 |
| ST7 (suppression of tumorigenicity 7) | -1.66 (active) |
| GCNT3 (glucosaminyl (N-acetyl) transferase 3, mucin type) | -1.23 (active) |
| IRX6 (iroquois homeobox 6) | -0.517 |
| ZNF461 (zinc finger protein 461) | 2.09 (active) |
| SYNGR3 (synaptogyrin 3) | -1.6 (active) |
| SARM1 (sterile alpha and TIR motif containing 1) | -1.53 (active) |
| KRT81 (keratin 81) | -1.71 (active) |
| B4GALT3 (beta-1,4-galactosyltransferase 3) | 0.759 |
| BPIFB1 (BPI fold containing family B member 1) | 1.48 (active) |
| SCAND3 (SCAN domain containing 3) | 0.573 |
| G6PD (glucose-6-phosphate dehydrogenase) | 1.94 (active) |
| OR5B2 (olfactory receptor family 5 subfamily B member 2) | 0.552 |
| TBX3 (T-box transcription factor 3) | -0.651 |
| BCL11B (BCL11 transcription factor B) | -0.28 |
| SDAD1 (SDA1 domain containing 1) | -2.58 (active) |
| IGFBP2 (insulin like growth factor binding protein 2) | 0.0075 |
| RHOBTB1 (Rho related BTB domain containing 1) | -2.77 (active) |
| CHPF2 (chondroitin polymerizing factor 2) | -1.27 (active) |
| METTL3 | -0.424 |
| GANAB (glucosidase II alpha subunit) | -0.743 |
| ATP2A2 | -1.18 (active) |
| BTN3A3 (butyrophilin subfamily 3 member A3) | -1.87 (active) |
| USP3 (ubiquitin specific peptidase 3) | -0.957 |
| NRXN2 (neurexin 2) | -0.636 |
| GYS1 (glycogen synthase 1) | -1.25 (active) |
| CXCL9 (C-X-C motif chemokine ligand 9) | -1.25 (active) |
| PSMA2 (proteasome 20S subunit alpha 2) | 2.26 (active) |
| SRSF9 (serine and arginine rich splicing factor 9) | -0.609 |
| SLC16A6 | -1.02 (active) |
| C6orf89 (chromosome 6 open reading frame 89) | -1.26 (active) |
| KMT5B (lysine methyltransferase 5B) | -1.35 (active) |
| VPS13B (vacuolar protein sorting 13 homolog B) | 0.448 |
| UQCC1 (ubiquinol-cytochrome c reductase complex assembly factor 1) | -1.46 (active) |
| AMIGO1 (adhesion molecule with Ig like domain 1) | 1.15 (active) |
| ZNRF4 (zinc and ring finger 4) | -2.91 (active) |
| AQP9 (aquaporin 9) | -1.81 (active) |
| CEP104 (centrosomal protein 104) | -0.073 |
| NDUFB11 (NADH:ubiquinone oxidoreductase subunit B11) | -0.678 |
| RASA2 (RAS p21 protein activator 2) | -0.515 |
| RIPPLY3 (ripply transcriptional repressor 3) | -0.223 |
| BPIFB4 (BPI fold containing family B member 4) | -0.615 |
| GDAP2 (ganglioside induced differentiation associated protein 2) | 1.06 (active) |
| STBD1 (starch binding domain 1) | -0.707 |
| H1-2 (H1.2 linker histone, cluster member) | 0.97 |
| PDF (peptide deformylase, mitochondrial) | 1.09 (active) |
| ACOT13 (acyl-CoA thioesterase 13) | -0.938 |
| FAM50B (family with sequence similarity 50 member B) | -1.02 (active) |
| ORMDL2 (ORMDL sphingolipid biosynthesis regulator 2) | -1.8 (active) |
| CH25H (cholesterol 25-hydroxylase) | 0.612 |
| SNRPD3 (small nuclear ribonucleoprotein D3 polypeptide) | 0.49 |
| PEDS1 (plasmanylethanolamine desaturase 1) | -1.54 (active) |
